Pooled drug test results. Numbers come from NIAID ChemDB, via PubChem.

Shared fields: tests in culture; organism: Sindbis virus

Rows are shuffled and stem from different studies. An empty or dashed field is not shown. ECn: concentration that inhibits the pathogen or its effect by n%.

SMILES,read by,cell line,read-out,result
CC(=O)O[C@H]1C[C@H](n2cc(C)c(=O)[nH]c2=O)O[C@@H]1COS(=O)(=O)NC(=O)O[C@H]1O[C@H](COCc2ccccc2)[C@@H](OCc2ccccc2)[C@H](OCc2ccccc2)[C@H]1OCc1ccccc1,plaque count,VERO,EC50,50 µg/mL
C[C@@]1(O)[C@@H](CO)O[C@@H](n2cnc3c(N)ncnc32)[C@@H]1O,cytopathic effect,VERO,EC50,>100 µg/mL
Nc1ncnc2c1ncn2[C@@H]1C=C(CO)[C@@H](O)[C@H]1O,cytopathic effect,VERO,EC50,>40 µg/mL
S=c1[nH]nc(Cc2nc3n(n2)CCCCC3)o1,-,-,MIC,>80 µg/mL
OC[C@H]1CC(n2cnc3c(NC4CC4)ncnc32)C[C@@H]1CO,-,VERO,EC50,>100 µg/mL
CC=NC(=N)c1nc(-c2ccc(OC)cc2)n(COCCO)n1,cytopathic effect,VERO,EC50,>100 µg/mL
Nc1nccc2c1ncn2[C@@H]1C=C[C@@H](O)[C@H]1O,-,-,MIC,>400 µg/mL
Nc1nc2c(ccn2[C@H]2CO[C@@H](CO)C2)c(=O)[nH]1,cytopathic effect,VERO,EC50,>400 µg/mL
C=CCc1nc(C)n2c(=O)[nH]c(NC(C)=O)nc12,cytopathic effect,VERO,EC50,>200 µg/mL
NC1CCCON2CCc3c([nH]c4ccccc34)[C@H]12,cytopathic effect,VERO,EC50,7 µg/mL
[N-]=[N+]=N[C@H]1[C@@H](F)[C@H](N2C=CC(N)NC2=O)O[C@@H]1CO,cytopathic effect,VERO B,EC50,>400 µg/mL
Nc1nccc2c1ncn2[C@@H]1C=C(CO)[C@@H](O)[C@H]1O,-,-,MIC,>400 µg/mL
OC[C@H]1O[C@@H](c2cc(/C=C/Br)c(F)cc2F)C[C@@H]1O,cytopathic effect,VERO,EC50,>16 µg/mL
CCn1nc(Cc2n[nH]c(=S)o2)nc1C,-,-,MIC,>400 µg/mL
Nc1ncnc2c1ncn2[C@@H]1C=C(CO)[C@@H](O)C1,cytopathic effect,VERO,EC50,>400 µg/mL
Nc1ncnc2c1ncn2[C@@H]1O[C@H](C(O)O)[C@@H](O)[C@@H]1O,cytopathic effect,VERO,EC50,>200 µg/mL
Nc1nccc2c1ncn2[C@@H]1C[C@H](CO)[C@@H](O)[C@H]1O,cytopathic effect,VERO,EC50,7 µg/mL
CC(C)O[C@@H]1[C@H](OC(C)C)[C@@H](COS(=O)(=O)NC(=O)O[C@H]2C[C@@H](OC(=O)c3ccccc3)[C@H](OC(=O)c3ccccc3)[C@@H](COC(=O)c3ccccc3)O2)O[C@H]1n1ccc(=O)[nH]c1=O,plaque count,VERO,EC50,>100 µg/mL
O=c1ccn([C@@H]2O[C@H](CO)[C@](O)(C(F)(F)F)[C@H]2O)c(=O)[nH]1,cytopathic effect,VERO,EC50,>400 µg/mL
CON1CCc2c([nH]c3ccccc23)[C@@H]1[C@@H](N)CSC,cytopathic effect,VERO,EC50,>40 µg/mL
OC[C@H]1O[C@H](c2cc(Cl)c(F)cc2F)C[C@@H]1O,cytopathic effect,VERO,EC50,>80 µg/mL
Cc1ccn2c(C(SCCc3ccccc3)SCCc3ccccc3)cnc2c1,-,VERO,EC50,>1000 µM
Nc1nc2c(ncn2CCCC(O)CF)c(=O)[nH]1,cytopathic effect,VERO,EC50,>400 µg/mL
O=C1CSc2nnc(-c3cn(-c4ccccc4)nc3-c3ccccc3)n2N1,cytopathic effect,VERO,EC50,>16 µg/mL
C=C[C@H](O)C1=C[C@@H](n2cnc3c(N)ncnc32)[C@H](O)[C@@H]1O,cytopathic effect,VERO,EC50,>100 µg/mL
Nc1nc(Cl)c2ncn([C@H]3CO[C@@H](CO)C3)c2n1,cytopathic effect,VERO,EC50,>400 µg/mL
CO[C@H](CO)[C@@H](O)CCn1ccc(N)nc1=O,cytopathic effect,VERO,EC50,>400 µg/mL
Nc1nc2c(ccn2[C@@H]2C[C@H](CO)[C@@H](O)[C@@H]2O)c(=O)[nH]1,-,-,MIC,>100 µg/mL
CCC(Sc1ncnc2c1cnn2COCC(O)CO)C(N)=O,cytopathic effect,VERO,EC50,>400 µg/mL
Nc1ncnc2c1ncn2[C@@H]1C=C(CO)[C@@H](O)[C@@H]1O,cytopathic effect,VERO,EC50,>400 µg/mL
Nc1ncnc2c1ncn2[C@@H]1CC[C@@H](O)[C@H]1O,-,-,MIC,>100 µg/mL
CC=NC(=N)c1nc(-c2ccccc2)n(COCCO)n1,cytopathic effect,VERO,EC50,>200 µg/mL
Nn1c(-c2cn(-c3ccccc3)nc2-c2ccccc2)n[nH]c1=S,cytopathic effect,VERO,EC50,>16 µg/mL
Cc1nc(Cc2n[nH]c(=S)n2-c2ccccc2)nn1C,-,-,MIC,>80 µg/mL
CC[C@H](O)C1=C[C@@H](n2cnc3c(N)ncnc32)[C@H](O)[C@@H]1O,cytopathic effect,VERO,EC50,>250 µg/mL
Nc1ccn([C@@H]2C=C(CO)[C@@H](O)[C@H]2O)c(=O)n1,cytopathic effect,VERO,EC50,0.2 µg/mL
N#CC1=CSc2nnc(-c3cn(-c4ccccc4)nc3-c3ccccc3)n2N=C1N,cytopathic effect,VERO,EC50,>16 µg/mL
CCn1nc(-c2ccc(Cn3ccc4ccccc43)cc2)nc1C,-,-,MIC,>80 µg/mL
CC(=O)Nc1nc2c(CC(O)CO)ncn2c(=O)[nH]1,cytopathic effect,VERO,EC50,>200 µg/mL
CC1(C)[C@@H](CO)CC[C@@]1(C)Cn1nnc2c(Cl)ncnc21,cytopathic effect,VERO,EC50,>400 µg/mL
CC=NC(=N)c1nc(-c2ccccc2)n(Cc2ccccc2)n1,cytopathic effect,VERO,EC50,>4 µg/mL
Nc1ncnc2c1ncn2C[C@H](O)CO,cytopathic effect,VERO,EC50,>400 µg/mL
Nc1ncnc2c1ncn2[C@@H]1C=C(CCl)[C@@H](O)[C@H]1O,cytopathic effect,VERO,EC50,>40 µg/mL
CC(C)O[C@@H]1[C@H](OC(C)C)[C@@H](COS(=O)(=O)NC(=O)O[C@H]2O[C@H](COCc3ccccc3)[C@H](OCc3ccccc3)[C@H](OCc3ccccc3)[C@H]2OCc2ccccc2)O[C@H]1n1ccc(=O)[nH]c1=O,plaque count,VERO,EC50,100 µg/mL
O=c1[nH]c(=O)n(C2C[C@H](CO)[C@@H](CO)C2)cc1I,-,VERO,EC50,>100 µg/mL
O=C1C=CN(COCCO)S(=O)(=O)N1COCCO,-,VERO,EC50,>400 µg/mL
CCC(Sc1ncnc2c1cnn2COCCO)C(N)=O,cytopathic effect,VERO,EC50,>400 µg/mL
C=C(N=CC)c1nc(-c2ccc(C)cc2)n(C2O[C@H](CO)[C@@H](O)[C@H](O)[C@H]2O)n1,cytopathic effect,VERO,EC50,>100 µg/mL
CC(=O)Nn1c(-c2cn(-c3ccccc3)nc2-c2ccccc2)n[nH]c1=S,cytopathic effect,VERO,EC50,>80 µg/mL
CC(=O)OCCOCN1C=CC(=O)NS1(=O)=O,-,VERO,EC50,>400 µg/mL
C=C(N=CC)c1nc(-c2cccc(C)c2)n([C@@H]2O[C@H](CO)[C@@H](O)[C@H]2O)n1,cytopathic effect,VERO,EC50,>40 µg/mL
CC1(CO)CCC(Cc2nc3ncnc(N)c3[nH]2)C1(C)C,cytopathic effect,VERO,EC50,>10 µg/mL
CC(=O)OCCOCN1C=CC(=O)N(COCCOC(C)=O)S1(=O)=O,-,VERO,EC50,>400 µg/mL
O=C(NS(=O)(=O)OCCOCn1ccc(=O)[nH]c1=O)O[C@H]1O[C@H](COCc2ccccc2)[C@@H](OCc2ccccc2)[C@H](OCc2ccccc2)[C@H]1OCc1ccccc1,plaque count,VERO,EC50,25 µg/mL
Cc1ccn2c(C3OCCS3)cnc2c1,-,VERO,EC50,>1000 µM
C=CCc1ncn2c(=O)[nH]c(NC(C)=O)nc12,cytopathic effect,VERO,EC50,>200 µg/mL
CC=NC(=N)c1nc(-c2ccc(C)cc2)n(COCCO)n1,cytopathic effect,VERO,EC50,>100 µg/mL
CC(C)CS[C@H]1C[C@@H](n2cnc3c(N)ncnc32)[C@H](O)[C@@H]1O,cytopathic effect,HeLa,EC50,>80 µg/mL
CC1(C)[C@@H](CO)CC[C@@]1(C)Cn1cc(Br)c(=O)[nH]c1=O,cytopathic effect,VERO,EC50,>400 µg/mL
Nc1ncnc2c1ncn2[C@@H]1O[C@H](C=O)[C@@H](O)[C@H]1O,cytopathic effect,VERO,EC50,>200 µg/mL
Nc1ncnc2c1ncn2[C@H]1C[C@@H](CO)[C@H](O)[C@@H]1O,cytopathic effect,VERO,EC50,>400 µg/mL
COc1ccc(-n2c(Cc3nc4n(n3)CCCC4)n[nH]c2=S)cc1,-,-,MIC,>400 µg/mL
O=c1[nH]n2c(-c3cn(-c4ccccc4)nc3-c3ccccc3)nnc2s1,cytopathic effect,VERO,EC50,>80 µg/mL
CC1(C)[C@@H](CO)CC[C@@]1(C)Cn1cnc2c(=O)[nH]cnc21,cytopathic effect,VERO,EC50,>400 µg/mL
CC[C@@H](O)C1=C[C@@H](n2cnc3c(N)ncnc32)[C@H](O)[C@@H]1O,cytopathic effect,VERO,EC50,>400 µg/mL
Nc1nc2c(ncn2CC[C@H](O)CCO)c(=O)[nH]1,cytopathic effect,VERO,EC50,>400 µg/mL
O=c1[nH]cnc2c1ncn2C1C[C@H](CO)[C@@H](CO)C1,-,VERO,EC50,>100 µg/mL
CO[C@H](CO)[C@@H](O)CCn1cc(C)c(=O)[nH]c1=O,cytopathic effect,VERO,EC50,>400 µg/mL
Nc1ncnc2c1ccn2[C@@H]1C[C@H](O)[C@@H](O)[C@H]1O,-,VERO,EC50,>400 µg/mL
Nc1ncnc2c1ncn2[C@@H]1C[C@H](COP(=O)(O)O)[C@@H](O)[C@H]1O,cytopathic effect,VERO,EC50,>200 µg/mL
Cc1cn(CCCC(O)CF)c(=O)[nH]c1=O,cytopathic effect,VERO,EC50,>400 µg/mL
NC(=O)CSc1ncnc2c1cnn2CCCCO,cytopathic effect,VERO,EC50,>400 µg/mL
Nc1ccn(CC[C@H](O)CCO)c(=O)n1,cytopathic effect,VERO,EC50,>400 µg/mL
CC1(CO)CCC(Cn2nnc3c(=O)[nH]cnc32)C1(C)C,cytopathic effect,VERO,EC50,>400 µg/mL
NC1=Nn2c(nnc2-c2cn(-c3ccccc3)nc2-c2ccccc2)SC1,cytopathic effect,VERO,EC50,>16 µg/mL
Nc1ncnc2c1ncn2[C@@H]1O[C@H](/C=N/O)[C@@H](O)[C@@H]1O,cytopathic effect,VERO,EC50,>40 µg/mL
NC1CSCON2CCc3c([nH]c4ccccc34)[C@H]12,cytopathic effect,VERO,EC50,0.2 µg/mL
Cc1cccn2c(C3SCCS3)cnc12,-,VERO,EC50,>1000 µM
CC1(CO)CCC(Cn2cnc3c(=O)[nH]cnc32)C1(C)C,cytopathic effect,VERO,EC50,>200 µg/mL
CC(=O)OCCOCN1C=C(C#N)C(N)=NS1(=O)=O,-,VERO,EC50,>400 µg/mL
Nc1ncnc2c1ncn2[C@@H]1O[C@H](C=O)C[C@H]1O,cytopathic effect,VERO,EC50,>200 µg/mL
CCOC(=O)C1=CN(COCCOC(C)=O)S(=O)(=O)N=C1N,-,VERO,EC50,>400 µg/mL
Nc1ncnc2c1ncn2[C@@H]1C=C(CO)[C@@H](O)[C@H]1O,cytopathic effect,VERO,EC50,7 µg/mL